The values below come from article PMC8608293, “A single amino acid polymorphism in a conserved effector of the multihost blast fungus pathogen expands host-target binding spectrum” (2021).

The target of this test is sHMA94 (recombinant, E. coli, tag cleaved, for ITC) (Setaria italica). Kind of test: ITC.

Broadly, the Kd is the free concentration of one partner at which half of the binding sites on the other are occupied at equilibrium, for simple one-to-one binding. For “APikL2F (recombinant, E. coli) (natural protein)”, the Kd is 146 nM.
